Results deposited as PubChem BioAssay AID504761 (Drosophila RNAi Screening Center, 2011)

Purpose: 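Fly genes whose silencing reduces dengue virus type 2 infection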 (primary screen)
System: D.Mel-2 cells from Drosophila
Reagents: long dsRNA against Drosophila genes
Treatment: infection with dengue virus type 2; dose and infection time not stated
Read-out: 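Per well on two replicate plates, imaging gave the percent of cells positive for viral envelope protein, ranked by infection, and a nuclear count of cells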
Direction: infection score: higher = more virus-infected cells; cell count: higher = more cells in the well
Hit rule: 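Very low infection ranking in both replicate wells (chance probability at most 0.065), then a retest showing infection dropped 1.5-fold or more at p below 0.05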
Calls: active = confirmed: knock-down lowers infection; inactive = not picked or not confirmed
In all, the deposit lists about 22,000 reagents; below is a random part of those that have a named target and a result. Of all reagents, 116 (0.52%) are marked active. 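Calls depend on retest data that are not deposited; infection was ranked per plate without normalising between plates; the unit of the infection score is not given.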 Raw values are not corrected between plates. Names joined by + are all predicted targets of the reagent. Further read-outs or replicates are left out here. No sequences are given here. Not given: the amount of reagent, the time to read-out.

Silencing of Slh (GeneID 33434) [DRSC00789] came out at: infection score, replicate 1 = 2.47; cell count, replicate 1 = 5915; inactive.
For CG42362 + CG42363 [DRSC04265], the values are infection score, replicate 1 = 34.4; cell count, replicate 1 = 5980; inactive.
Depletion of Nse1 (GeneID 33938) [DRSC02147] gave: infection score, replicate 1 = 5.4; cell count, replicate 1 = 6004; inactive.
Depletion of CG10814 (GeneID 36481) [DRSC06004] resulted in: infection score, replicate 1 = 12.7; cell count, replicate 1 = 6120; inactive.
Knock-down of ced-6 (GeneID 35971) [DRSC07591] gave: infection score, replicate 1 = 2.98; cell count, replicate 1 = 6570; inactive.
Knock-down of ced-6 (GeneID 35971) [DRSC29627] came out at: infection score, replicate 1 = 8.33; cell count, replicate 1 = 4934; inactive.
With knock-down of CG17191 (GeneID 43249) [DRSC15185] the results were infection score, replicate 1 = 2.14; cell count, replicate 1 = 6536; inactive.
Silencing of CG17191 (GeneID 43249) [DRSC24134] resulted in: infection score, replicate 1 = 1.22; cell count, replicate 1 = 6054; inactive.
For Fit1 (GeneID 38488) [DRSC08450], the entry reads infection score, replicate 1 = 17.8; cell count, replicate 1 = 5695; inactive.
After knock-down of Fit1 (GeneID 38488) [DRSC24407], the record shows infection score, replicate 1 = 4.05; cell count, replicate 1 = 5929; inactive.
Knock-down of beat-IIIa (GeneID 35035) [DRSC01577] came out at: infection score, replicate 1 = 5.88; cell count, replicate 1 = 6312; inactive.
With knock-down of beat-IIIa (GeneID 35035) [DRSC02178] the results were infection score, replicate 1 = 1.35; cell count, replicate 1 = 6616; inactive.
For E(spl)m3-HLH (GeneID 43156) [DRSC23160] the deposit lists infection score, replicate 1 = 1.26; cell count, replicate 1 = 6978; inactive.
Depletion of E(spl)m3-HLH (GeneID 43156) [DRSC28511] gave: infection score, replicate 1 = 21.8; cell count, replicate 1 = 5027; inactive.
With knock-down of beat-Va (GeneID 41578) [DRSC14192] the results were infection score, replicate 1 = 5.24; cell count, replicate 1 = 5724; inactive.
MED18 (GeneID 31140) [DRSC18549] gave cell count, replicate 1 = 347; inactive.
Depletion of Pdss2 (GeneID 40323) [DRSC11625] resulted in: infection score, replicate 1 = 8.61; cell count, replicate 1 = 6658; inactive.
After knock-down of RluA-1 (GeneID 34438) [DRSC02240], the screen gave infection score, replicate 1 = 3.2; cell count, replicate 1 = 6316; inactive.
With knock-down of RluA-1 (GeneID 34438) [DRSC03060] the results were infection score, replicate 1 = 2.05; cell count, replicate 1 = 6696; inactive.
Silencing of Vm32E (GeneID 34558) [DRSC03474] gave: cell count, replicate 1 = 482; inactive.
Vm32E (GeneID 34558) [DRSC25156] gave infection score, replicate 1 = 10.5; cell count, replicate 1 = 5348; inactive.

Reformatted: 3 of the entries above
{"target":"beat-Va (GeneID 41578)","DRSC id":"DRSC14192","infection score, replicate 1":5.24,"cell count, replicate 1":5724,"outcome":"inactive"}
{"target":"MED18 (GeneID 31140)","DRSC id":"DRSC18549","cell count, replicate 1":347,"outcome":"inactive"}
{"target":"Pdss2 (GeneID 40323)","DRSC id":"DRSC11625","infection score, replicate 1":8.61,"cell count, replicate 1":6658,"outcome":"inactive"}
